Measured values from several laboratories, pooled; numbers as filed in NIAID ChemDB.

Common to all: tests in culture; organism: HIV-1; read by: RT activity; read-out: EC50

An empty or dashed field is not shown.

| smiles | strain or isolate | changes | cells | result |
|---|---|---|---|---|
| CC(C)OC(=O)[C@H](C)NP(=O)(OCC(F)(F)C(F)(F)C(F)(F)Cn1ccc(N)nc1=O)Oc1ccccc1 | LAI | - | PBMC | >100 µM |
| CC(C)(C)NC(=O)[C@@H]1CN(Cc2cccnc2)CCN1C[C@H](C[C@@H](Cc1ccccc1)C(=O)N[C@H]1c2ccccc2C[C@H]1OC(=O)CCCCOc1ccc(C[C@H](NC(=O)OC(C)(C)C)C(=O)O)cc1)OC(=O)CCCCOc1ccc(C[C@H](NC(=O)OC(C)(C)C)C(=O)O)cc1 | LAI | - | CEM | >1 µM |
| CCN(CC)C(=O)OCC1CN(Cc2noc(=O)[nH]2)CCN1C(=O)c1cc(OC)c(OC)c(OC)c1 | BaL | - | MDM | >100 µM |
| COc1cnc(-n2cnc(C)n2)c2[nH]cc(C(=O)C(=O)N3CCN(C(=O)c4ccccc4)CC3)c12 | RF | - | MT-2 | >2 µM |
| CCN(CC)C(=O)OCC1CN(C(=O)c2cc(OC)c(OC)c(OC)c2)CCN1C(=S)c1cc(OC)c(OC)c(OC)c1 | BaL | - | MDM | >100 µM |
| Cc1cn([C@H]2C[C@H](N=[N+]=[N-])[C@@H](COP(=O)(O)OCCS[C@@H]3O[C@H](CO)[C@@H](O)[C@H](O)[C@H]3O)O2)c(=O)[nH]c1=O | BaL | - | PBMC | 0.02 µM |
| CC(C)CC(=O)N[C@H](C(=O)N[C@H](C(=O)N[C@H]([C@@H](O)CC(=O)N[C@@H](C)C(=O)N[C@H]([C@@H](O)CC(=O)O)C(F)(F)F)C(F)(F)F)C(C)C)C(C)C | LAI | - | CEM + CEM-SS | >10 µg/mL |
| O=c1[nH]c(=O)n([C@H]2O[C@@H](CO)[C@H](O)C2(F)F)cc1Cl | LAI | - | PBMC | >100 µM |
| COC(=O)[C@H](C)NP(=O)(OC[C@@H]1OC[C@H](n2cc(C)c(=O)[nH]c2=O)O1)Oc1ccc(Cl)cc1Cl | LAI | RT-M184V | PBMC | 0.85 µM |
| CC(C)(C)NC(=O)[C@@H]1CN(Cc2cccnc2)CCN1C[C@@H](O)C[C@@H](Cc1ccccc1)C(=O)N[C@H]1c2ccccc2C[C@H]1OC(=O)CCCCOc1ccc(C[C@H](N)C(=O)O)cc1 | LAI | - | CEM | 0.009 µM |
| Cc1cn([C@H]2C=C[C@@H](CO)O2)c(=O)n(CCCCN2CCN(CCNC(=S)Nc3ccc(Br)cn3)CC2)c1=O | IIIB | - | CEM + CEM-SS | 19 µM |
| Cc1nc(CCCCCCC(=O)c2ccccc2)n2nc(NCCCCCCCCNCc3cn([C@H]4C=C[C@@H](CO)O4)c(=O)[nH]c3=O)ccc12 | IIIB | - | PBMC | 0.1 µM |
| CCCCCCCCCCCCCCCCCCOCCOP(=O)(O)OC[C@@H]1OC[C@H](n2cc(C)c(=O)[nH]c2=O)O1 | LAI | RT-M184V | PBMC | 0.3 µM |
| Nc1nc(=O)n([C@H]2O[C@@H](CO)[C@H](O)C2(F)F)cc1F | LAI | - | PBMC | >100 µM |
| O=C(O)CN(CCCN(CCN(CC(=O)O)CC(=O)O)Cc1cnc2c(O)cccc2c1)CC(=O)O | HXB2 | - | MT-4 | 19.3 µM |
| Nc1nc(=O)n([C@H]2C=C[C@@H](CO)O2)cc1F | LAI | - | PBMC | <0.18 µM |
| COc1cc(-c2ccc(N=Nc3ccc4c(S(=O)(=O)O)cc(S(=O)(=O)O)c(N)c4c3O)c(OC)c2)ccc1N=Nc1ccc2c(S(=O)(=O)O)cc(S(=O)(=O)O)c(N)c2c1O | PM16 | - | CEM + CEM-SS | 0.6 µM |
| COC(=O)[C@H](C)NP(=O)(OC[C@@H]1OC[C@H](n2cc(C)c(=O)[nH]c2=O)O1)Oc1ccc(Cl)cc1 | LAI | RT-M184V | PBMC | 0.18 µM |
| Cc1cn([C@H]2C[C@H](N=[N+]=[N-])[C@@H](COP(=O)(OCCSC(=O)C(C)(C)C)OCCSC(=O)C(C)(C)C)O2)c(=O)[nH]c1=O | BaL | - | PBMC | 0.062 µM |
| Cc1nc(CCCCCCC(=O)c2ccccc2)n2nc(NCCCCCCCCCCCCN)ccc12 | LAI | - | CEM + CEM TK- | 5.9 µM |
| COCC1OC(=O)C12N(C)C(=O)C(C)C2(O)C(CC(C)C(O)/C=C/C=C/CNC(=O)C(C)(C)C(O)\C(C)=C/C=C\C=C\Cc1cnc(C)o1)OC | IIIB | - | H9 | 2.5 µg/mL |
| O=C(O)c1ccc2nc(-c3c(F)cccc3F)n(Cc3c(F)cccc3F)c2c1 | IIIB | - | MT-4 | >117 µM |
| Cc1cn(C2C[C@H](CO)[C@@H](CO)C2)c(=O)[nH]c1=O | IIIB | - | H9 | >10 µg/mL |
| Cc1cn([C@H]2O[C@@H](CO)C[C@H]2O)c(=O)[nH]c1=O | - | - | MT-4 | >100 µM |
| CC(C)(C)NC(=O)[C@@H]1CN(Cc2cccnc2)CCN1C[C@@H](O)C[C@@H](Cc1ccccc1)C(=O)N[C@H]1c2ccccc2C[C@H]1OC(=O)CCCCOc1ccc(C[C@H](NC(=O)OC(C)(C)C)C(=O)O)cc1 | LAI | - | CEM | 0.22 µM |
| Nc1ncnc2c1ncn2CC(F)(F)C(F)(F)CO | LAI | - | PBMC | >100 µM |
| CCCCCCCC/C=C\CCCCCCCC(=O)O[C@H](CN1C[C@H]2CCCC[C@H]2C[C@H]1C(=O)NC(C)(C)C)[C@H](Cc1ccccc1)NC(=O)[C@H](CC(N)=O)NC(=O)c1ccc2ccccc2n1 | LAI | - | CEM | 1.3 µM |
| COC(=O)[C@H](Cc1ccccc1)NP(=O)(OC[C@@H]1OC[C@H](n2cc(C)c(=O)[nH]c2=O)O1)Oc1ccccc1 | LAI | RT-M184V | PBMC | 1.9 µM |
| Nc1ccn([C@H]2O[C@@H](CO)[C@H](O)C2(F)F)c(=O)n1 | LAI | - | PBMC | >100 µM |
| C[C@H](NC(=O)C[C@H](O)[C@@H](NC(=O)Oc1ccccc1)C(F)(F)F)C(=O)O | IIIB | - | MT-4 | >100 µg/mL |
| Cc1c(O)cccc1C(=O)N[C@@H](CSc1ccccc1)[C@@H](CN1C[C@H]2CCCC[C@H]2C[C@H]1C(=O)NC(C)(C)C)OC(=O)CCCCOc1ccc(C[C@H](NC(=O)OC(C)(C)C)C(=O)O)cc1 | LAI | - | CEM | 0.54 µM |
| Cc1cn([C@H]2C[C@H](N=[N+]=[N-])[C@@H](CO)O2)c(=O)[nH]c1=O | BR-92-025 (subtype C) | - | PBMC | 0.00095 µM |
| CCOC(=O)[C@H](C)NP(=O)(OCC(F)(F)C(F)(F)Cn1cnc2c(N)ncnc21)Oc1ccccc1 | LAI | - | PBMC | 31 µM |
| CC(=O)N[C@@H](CSC(=O)C(C)C)C(=O)NCCSC(=O)C(C)(C)C | BaL | - | MDM | <150 µM |
| Fc1ccccc1Cn1c(-c2ccccc2F)nc2ccccc21 | IIIB | - | MT-4 | 2.62 µM |
| CC(=O)N[C@@H](CS)C(=O)NCCSC(=O)C(C)(C)C | BaL | - | MDM | 145 µM |
| CCN(CC)C(=O)OCC1CN(C(=S)c2cc(OC)c(OC)c(OC)c2)CCN1C(=O)c1cc(OC)c(OC)c(OC)c1 | BaL | - | MDM | >10 µM |
| Nc1ncnc2c1ccn2[C@H]1C=C[C@@H](CO)C1 | IIIB | - | PBMC | 0.4 µM |
| Nc1ccn(C2C[C@H](CO)[C@@H](CO)C2)c(=O)n1 | IIIB | - | H9 | >10 µg/mL |
| COC(=O)C[C@H](O)[C@@H](NC(=O)[C@H](C)NC(=O)C[C@H](O)[C@@H](NC(=O)Oc1ccccc1)C(F)(F)F)C(F)(F)F | IIIB | - | MT-4 | >100 µg/mL |
| CC(=O)N[C@@H](CSC(=O)C(C)(C)C)C(=O)NCCSC(=O)C(C)(C)C | BaL | - | MDM | <150 µM |
| CCCCCCCCCCCCCCCCOCCCOP(=O)(NCC(=O)OC)OC[C@@H]1OC[C@H](n2cc(C)c(=O)[nH]c2=O)O1 | LAI | RT-M184V | PBMC | 11.9 µM |
| Cc1cn([C@@H]2O[C@@H](CO)[C@H](O)C2(F)F)c(=O)[nH]c1=O | LAI | - | PBMC | >100 µM |
| CC(C)OC(=O)[C@H](C)NP(=O)(OCC(F)(F)C(F)(F)C(F)(F)Cn1cnc2c(=O)[nH]c(N)nc21)Oc1ccccc1 | LAI | - | PBMC | >100 µM |
| Cc1nc(CCCCCCC(=O)c2ccccc2)n2nc(NCCCCCCCCCCCCNCc3cn([C@H]4C=C[C@@H](CO)O4)c(=O)[nH]c3=O)ccc12 | IIIB | - | PBMC | 0.04 µM |
| COc1cc2c(cc1Cc1cccc(Cl)c1F)c(=O)c(C(=O)O)cn2[C@H](CO)C(C)C | NL4-3 | G118R/E138K | PM1 | 0.0025 µM |
| CCOC(=O)P(=O)(O)OC[C@H]1O[C@@H](n2cc(C)c(=O)[nH]c2=O)C[C@@H]1N=[N+]=[N-] | pHXBc2 | - | Jurkat cells | 0.1 µM |
| Nc1ccn(CC(F)(F)C(F)(F)C(F)(F)CO)c(=O)n1 | LAI | - | PBMC | >100 µM |
| Cc1cn([C@H]2C=C[C@@H](CO)O2)c(=O)n(CCCCCCN2CCN(CCNC(=S)Nc3ccc(Br)cn3)CC2)c1=O | IIIB | - | CEM + CEM-SS | 10 µM |
| CC(C)(C)NC(=O)[C@@H]1CN(Cc2cccnc2)CCN1C[C@H](C[C@@H](Cc1ccccc1)C(=O)N[C@H]1c2ccccc2C[C@H]1O)OC(=O)NCCCCOc1ccc(C[C@H](N)C(=O)O)cc1 | LAI | - | CEM | 6.4 µM |
| C[C@H]1CO[C@@H]2Cn3cc(C(=O)NCc4ccc(F)cc4F)c(=O)c(O)c3C(=O)N12 | NL4-3 | R263K | CBMC | 0.0014 µM |
| CCN(CC)CCCC(C)Nc1ccnc2cc(Cl)ccc12 | - | - | U-937 | <100 µM |
| Cc1c(OC(=O)CCCCOc2ccc(C[C@H](NC(=O)OC(C)(C)C)C(=O)O)cc2)cccc1C(=O)N[C@@H](CSc1ccccc1)[C@H](O)CN1C[C@H]2CCCC[C@H]2C[C@H]1C(=O)NC(C)(C)C | LAI | - | CEM | 0.029 µM |
| COC(=O)C[C@H](O)[C@@H](NC(=O)Oc1ccccc1)C(F)(F)F | IIIB | - | MT-4 | >100 µg/mL |
| Nc1nc(NC2CC2)c2ncn([C@H]3CO[C@@H](CO)O3)c2n1 | RF | - | MT-4 | 6.7 µM |
| Cc1nc(CCCCCCC(=O)c2ccccc2)n2nc(NCCCCCCCCCCNCc3cn([C@H]4C=C[C@@H](CO)O4)c(=O)[nH]c3=O)ccc12 | IIIB | - | PBMC | 0.035 µM |
| CC(=O)N[C@@H](CSC(=O)C(C)C)C(=O)NCCSC(=O)c1ccccc1 | BaL | - | MDM | <150 µM |
| Cc1cn([C@H]2O[C@@H](CO)C[C@@H]2N=[N+]=[N-])c(=O)[nH]c1=O | - | - | MT-4 | >100 µM |
| CC(C)OC(=O)[C@H](C)NP(=O)(OCC(F)(F)C(F)(F)C(F)(F)Cn1cnc2c(N)ncnc21)Oc1ccccc1 | LAI | - | PBMC | >100 µM |
| Cc1cc2nc(-c3c(F)cccc3F)n(Cc3c(F)cccc3F)c2cc1C | IIIB | - | MT-4 | >6.15 µM |
| O=c1ccn([C@H]2C=C[C@@H](CO)O2)c(=O)n1CCOCCN1CCN(CCNC(=S)Nc2ccc(Br)cn2)CC1 | IIIB | - | CEM + CEM-SS | >100 µM |
| COC(=O)[C@H](C)NP(=O)(OC[C@@H]1OC[C@H](n2cc(C)c(=O)[nH]c2=O)O1)Oc1ccc(C)cc1 | LAI | RT-M184V | PBMC | 0.61 µM |
| CC(=O)OC[C@H]1O[C@@H](SCCOP(=O)(O)OC[C@H]2O[C@@H](n3cc(C)c(=O)[nH]c3=O)C[C@@H]2N=[N+]=[N-])[C@H](OC(C)=O)[C@@H](OC(C)=O)[C@@H]1OC(C)=O | BaL | - | PBMC | 0.01 µM |
| CC(=O)N[C@@H](CSC(C)=O)C(=O)NCCSC(C)=O | BaL | - | MDM | <150 µM |
| Nc1ccn(CC(F)(F)C(F)(F)CO)c(=O)n1 | LAI | - | PBMC | >100 µM |
| CC(=O)N[C@@H](CS)C(=O)NCCSC(C)=O | BaL | - | MDM | 45 µM |
| O=C(CNC(=O)COc1ccccc1)NCc1ccc(C(=O)N2CCCCC2)cc1 | G-3 | - | PBMC | 18.9 µM |
| Cc1nc(CCCCCCC(=O)c2ccccc2)n2nc(NCCCCCCCCCCN)ccc12 | LAI | - | CEM + CEM TK- | 5.8 µM |
| CCN(CC)C(=O)OCC1CN(Cc2ccccc2)CCN1Cc1ccccc1 | BaL | - | MDM | 2 µM |
| Cc1ccc(NC(=O)CN2CCN(Cc3nc(-c4ccc(F)cc4)no3)CC2)cc1 | CMU08 | - | PBMC | 11.7 µM |
| O=c1[nH]cnc2c1ccn2[C@H]1C=C[C@@H](CO)C1 | LAI | - | CEM + CEM-SS | >100 µM |
| CCN(CC)C(=O)OCC1CN(C(=O)c2cc(OC)c(O)c(OC)c2)CCN1C(=O)c1cc(OC)c(O)c(OC)c1 | BaL | - | MDM | 35 µM |
| COC(=O)CNP(=O)(OC[C@@H]1OC[C@H](n2cc(C)c(=O)[nH]c2=O)O1)Oc1ccccc1 | LAI | RT-M184V | PBMC | 2.2 µM |
| S=C(NCCN1CCNCC1)Nc1ccc(Br)cn1 | IIIB | - | PBMC | 8.6 µM |
| CCN(CC)C(=O)OCC1CN(C(=O)c2ccc(OC)c(OC)c2)CCN1C(=O)c1ccc(OC)c(OC)c1 | BaL | - | MDM | >10 µM |

ECn is the concentration giving n% inhibition of infection, replication or growth. Rows are shuffled and stem from different studies.